Values quoted from earlier work, collected in article PMC2858705 (PLoS Pathogens, 2010).

Target: nsp16 nsp16 (SARS coronavirus) (UniProt P0C6X7)
Test: SPR
Conditions: cited from earlier work

In the case of nsp10 nsp10 (from UniProt P0C6X7), the Kd is given as 250 nM.
